Anti-infective test results gathered from many reports (values: NIAID ChemDB through PubChem).

Common to all: host cell toxicity; cell line: U-937; measure: CC50

Two numbers with a dash give a range or band. Lines come from different laboratories, so protocols vary. CCn: concentration that lowers growth or viability of the cells by n%.

| smiles | result |
|---|---|
| CC[C@@H](C(=O)[C@@H](C)[C@@H](O)[C@H](C)CCc1ccc(C)c(O)c1C(=O)O)[C@H]1O[C@](CC)([C@H]2CC[C@](O)(CC)[C@H](C)O2)C[C@@H]1C | 1.35 µg/mL |
| COc1ccc(CN[C@@H](C(=O)N[C@H](C(=O)NCc2nc3ccccc3[nH]2)C(C)C)[C@H](O)[C@H](Cc2ccccc2)NC(=O)[C@@H](NC(=O)OCc2ccccc2)C(C)(C)C)cc1 | 12.2 µM |
| Nc1ccn([C@@H]2CC[C@H](CO)O2)c(=O)n1 | 42.8 µM |
| O=C(O)c1cc(O)cc(O)c1N=Nc1ccc(/C=C/c2ccc(N=Nc3c(O)cc(O)cc3C(=O)O)cc2S(=O)(=O)O)c(S(=O)(=O)O)c1 | 154 µg/mL |
| COc1ccc(CN[C@@H](C(=O)N[C@H]2c3ccccc3C[C@H]2O)[C@H](O)[C@H](Cc2ccccc2)NC(=O)[C@@H](NC(=O)OCc2ccccc2)C(C)(C)C)cc1 | 10 µM |
| CC[C@@H](O)[C@]1(C)C[C@H](C)[C@@](O)([C@H]2C[C@H](C)[C@H]([C@]3(C)CC[C@H]([C@@H]4CC[C@@]5(O[C@H]([C@@H](C)[C@@H](OC)[C@H](C)C(=O)O)[C@H](C)[C@@H](OC)[C@H]5C)O4)O3)O2)O1 | 0.55 µg/mL |
| CCCCCCCCCCCCCC(=O)OC[C@@H](COP(=O)(O)OC[C@@H]1CC[C@H](n2ccc(N)nc2=O)O1)OC(=O)CCCCCCCCCCCCC | >71.4 µM |
| CCCN(C)C(=O)Oc1nsnc1-c1c(Cl)cccc1Cl | 131 µM |
| Cc1cn([C@H]2C[C@H](N=[N+]=[N-])[C@@H](CO)O2)c(=O)[nH]c1=O | 7.5 µg/mL |
| CO[C@@H]1C[C@@H](C[C@H]2CC[C@H](C)[C@H]([C@@H](C)C(=O)O)O2)O[C@]2(O[C@](C)([C@H]3CC[C@@](C)([C@@H]4O[C@@H]([C@H]5O[C@@](O)(CO)[C@H](C)C[C@@H]5C)C[C@@H]4C)O3)C[C@H]2C)[C@@H]1C | 0.4 µg/mL |
| CC(=O)O[C@@H]1[C@H](OC(=O)CC(C)C)c2c(ccc3ccc(=O)oc23)OC1(C)C | >1.5 µM |
| CCCc1cc(=O)oc2c3c(c4c(c12)OC(C)(C)C=C4)O[C@H](C)[C@@H](C)[C@@H]3O | 10–20 µM |
| Nc1ccn([C@H]2CO[C@@H](CO)S2)c(=O)n1 | >500 µM |
| O=c1[nH]cnc2c1ncn2[C@H]1CC[C@@H](CO)O1 | 392 µM |
| COC1CCC(OC2CC(C)(C3CCC(C4OC(C)(O)C(C)CC4C)O3)OC2C2(C)CC(C)C3(OC(CC4OC(O)(C(C)C(=O)O)C(C)C(OC)C4OC)CC(OC)C3C)O2)OC1C | 2.1 µg/mL |
| Nc1ccn([C@@H]2CO[C@H](CO)S2)c(=O)n1 | 22 µM |
| CCCc1cc(=O)oc2c3c(c4c(c12)OC(C)(C)C=C4)O[C@@H](C)[C@H](C)[C@@H]3O | 10–20 µM |
| NC(=O)c1ncn([C@@H]2O[C@H](CO)[C@@H](O)[C@H]2O)n1 | >2 µM |
| Nc1nc(NC2CC2)c2ncn([C@H]3C=C[C@@H](CO)C3)c2n1 | 310 µM |
| Cc1cn([C@H]2C[C@H](N=[N+]=[N-])[C@@H](CO)O2)c(=O)[nH]c1=O | 19.7 µg/mL |
| NOCc1c(F)cccc1Cl | 44.8 µg/mL |
| CC(=O)c1ccc(C)cc1NC(C(N)=O)c1c(Cl)cccc1Cl | 47 µM |
| CCCCCOc1c(C)c(O)c2c3c1C(=O)/C(C)=C/[C@@](C)(O)[C@H](O)[C@@H](C)[C@@H](O)[C@@H]1C(=O)O[C@@H](C(C)[C@H]1O)[C@H](C)/C=C\C=C(/C)C(=O)NC(=C(C)C3=O)C2=O | 9 µg/mL |
| CC[C@@]1(O)C(=O)OCc2c1cc1n(c2=O)Cc2cc3c([N+](=O)[O-])cccc3nc2-1 | >0.05 µM |

A second listing of 2 rows from above:

smiles | result
CCCc1cc(=O)oc2c3c(c4c(c12)OC(C)(C)C=C4)O[C@H](C)[C@@H](C)[C@@H]3O | 10–20 µM
CC(=O)c1ccc(C)cc1NC(C(N)=O)c1c(Cl)cccc1Cl | 47 µM